In US20070265201A1, “INHIBITORS OF INFLAMMATORY CYTOKINE TRANSCRIPTION DERIVED FROM HCMV PROTEIN IE2” (priority 2005, published 2007):

System: HeLa-S3 cells
Experiment: Localization of GFP-IE2 fragment fusion protein after transfection
Format: cell-based
Settings: 24 hours post transfection, HeLa-S3, FIG. 4A

Substance: GFP-IE2 291-343 (SSHHGRGGFGGAASSSLLSCGHQSSGGASTGPRKKKSKRISELDNEKVRNIMK; left off: large carriers)
- subcellular localization of GFP fusion protein: both cytoplasmic and nuclear localization
